Laboratory results: PubChem BioAssay AID504761 (Drosophila RNAi Screening Center, 2011)
Assay: 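Fly genes whose silencing reduces dengue virus type 2 infection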 (primary screen). System: D.Mel-2 cells from Drosophila. Reagent: long dsRNA against Drosophila genes. Treatment: infection with dengue virus type 2; dose and infection time not stated. Read-out: 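Cells stained for dengue envelope protein and imaged; percent of infected cells per well on duplicate plates, ranked by infection, with stained nuclei counted for cell number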. Direction: infection score: higher = more virus-infected cells; cell count: higher = more cells in the well. Hit rule: 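Very low infection ranking in both replicate wells (chance probability at most 0.065), then a retest showing infection dropped 1.5-fold or more at p below 0.05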. Calls: active = confirmed: knock-down lowers infection; inactive = not picked or not confirmed.
The deposit covers about 22,000 reagents; shown is a random part of those that have a named target and a result. Over the whole deposit, 116 (0.52%) got an active call. 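Calls depend on retest data that are not deposited; infection was ranked per plate without normalising between plates; the unit of the infection score is not given.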 Raw values are not corrected between plates. Entries without a mark were called inactive. A plus sign joins genes that one reagent is predicted to hit. Not stated in the record: the amount of reagent, the time to read-out.

Target gene	PubChem SID	infection score, replicate 1	infection score, replicate 2	cell count, replicate 1	cell count, replicate 2
CG3021	SID104197957	5.59	12.8	4397	5119
CG3021	SID104198444	3.28	8.18	6133	2275
Jon74E (Jonah 74E)	SID104190409	4.17	3.16	6232	6448
Jon74E (Jonah 74E)	SID104202955	7.84	2.04	5959	5892
Nlg4 (Neuroligin 4)	SID104194901	3.18	0.56	6448	5668
Nlg4 (Neuroligin 4)	SID104195492	3.11	3.11	6558	5764
Nlg4 (Neuroligin 4)	SID104201769	5.88	13.2	7145	6444
Nlg4 (Neuroligin 4)	SID104207329	25	11.3	5188	4564
Nlg4 (Neuroligin 4)	SID104208305	5.63	7.55	6514	6452
Nlg4 (Neuroligin 4)	SID104208566	11.3	7.24	1670	6578
Ptp69D (Protein tyrosine phosphatase 69D)	SID104191050	0.57	6.97	5465	5492
exex (extra-extra)	SID104190764	4.97	1.59	6179	6653
exex (extra-extra)	SID104203318	4	1.31	5856	5718
Fur1 (Furin 1)	SID104193499	0.63	0.25	6183	5905
Fur1 (Furin 1)	SID104196468	1.04	5.5	5989	6238
dod (dodo)	SID104200369	2.37	4.2	6336	5756
dod (dodo)	SID104204947	12.6	2.26	5931	6419
ORY (Occludin-Related Y)	SID104202242	2.06	1.16	5779	6579
Gas8 (Growth arrest specific protein 8)	SID104202243	0.86	1.39	6161	7037
Gas8 (Growth arrest specific protein 8)	SID104207797	13.3	2.2	5615	363
CG30049	SID104201123	7.88	5.92	5872	879
CG30049	SID104205253	2.03	9.25	6243	6681
CG8677 + CG31626	SID104181630	3.71	6.76	781	5780

Entries above whose gene name starts with F or f:
Target gene	PubChem SID	infection score, replicate 1	infection score, replicate 2	cell count, replicate 1	cell count, replicate 2
Fur1 (Furin 1)	SID104193499	0.63	0.25	6183	5905
Fur1 (Furin 1)	SID104196468	1.04	5.5	5989	6238
